Pooled drug test results. Numbers come from NIAID ChemDB, via PubChem.

Common to all: tests in culture; agent: Aspergillus niger; endpoint: MIC

Blank or dashed fields: not listed here. Rows are shuffled and stem from different studies. Two numbers with a dash give a range or band.

| SMILES | strain or isolate | read by | result |
|---|---|---|---|
| CCN=C(Nc1ccc(C(C)=O)cc1)N(CC)c1nc2ccc(C(C)=O)cc2s1 | - | - | 100–120 µg/mL |
| O=C(CSc1nnc(-c2ccc3ncccc3c2)o1)Nc1nc2ccc([N+](=O)[O-])cc2s1 | - | agar | 25 µg/mL |
| COc1ccc(Cc2cn(Cc3ccc(O)cc3)c(/N=C3/NC(=O)NC3=O)n2)cc1 | ATCC 9642 | - | ≥100 µg/mL |
| CCOc1ccc(N=c2sn(CC)c(=Nc3ccc(OCC)cc3)n2CC)cc1 | - | - | 20–40 µg/mL |
| O=C(CSc1nnc(-c2ccc3ncccc3c2)o1)Nc1ccccc1 | - | agar | 100 µg/mL |
| COc1cc(/C=C2/SC(=O)N(CC(=O)Nc3nc4ccc(SC#N)cc4s3)C2=O)cc(OC)c1OC | MTCC 282 | broth dilution / visual reading | 1000 µg/mL |
| O=C(/C=C/c1ccc(OCCCOc2ccc(/C=C/C(=O)c3ccccc3)cc2)cc1)c1ccccc1 | - | broth dilution | 32 µg/mL |
| O=C1CSC(=O)N1 | MTCC 282 | broth dilution / visual reading | 500 µg/mL |
| CCN=C(Nc1ccc(Br)cc1)N(CC)c1nc2ccc(Br)cc2s1 | - | - | 60–80 µg/mL |
| O=C(CSc1nnc(-c2ccc3ncccc3c2)o1)Nc1ccc([N+](=O)[O-])cc1 | - | agar | 50 µg/mL |
| O=C(/C=C/c1ccc(OCCCCCCCCCCOc2ccc(/C=C/C(=O)c3ccccc3)cc2)cc1)c1ccccc1 | - | broth dilution | 4 µg/mL |
| CC(=O)Nc1ccc(NC(=O)CSc2nnc(-c3ccc4ncccc4c3)o2)cc1 | - | agar | 12.5 µg/mL |
| c1ccc(C2=NN(c3ccccc3)C(c3ccc(OCCCCCOc4ccc(C5CN(c6ccccc6)N=C5c5ccccc5)cc4)cc3)C2)cc1 | - | broth dilution | 32 µg/mL |
| N#CSc1ccc2nc(NC(=O)CN3C(=O)S/C(=C/c4ccc(O)cc4)C3=O)sc2c1 | MTCC 282 | broth dilution / visual reading | 1000 µg/mL |
| CCN=C(Nc1ccc(OCC)cc1)N(CC)c1nc2ccc(OCC)cc2s1 | - | - | 20–40 µg/mL |
| N#CSc1ccc2nc(N)sc2c1 | MTCC 282 | broth dilution / visual reading | 500 µg/mL |
| c1ccc(C2=NN(c3ccccc3)C(c3ccc(OCCOc4ccc(C5CC(c6ccccc6)=NN5c5ccccc5)cc4)cc3)C2)cc1 | - | broth dilution | 16 µg/mL |
| C[C@@H](c1ncncc1F)[C@](O)(Cn1cncn1)c1ccc(F)cc1F | ATCC 16404 | broth dilution | 1 µg/mL |

The last 2 rows once more:

SMILES | strain or isolate | read by | result
c1ccc(C2=NN(c3ccccc3)C(c3ccc(OCCOc4ccc(C5CC(c6ccccc6)=NN5c5ccccc5)cc4)cc3)C2)cc1 | - | broth dilution | 16 µg/mL
C[C@@H](c1ncncc1F)[C@](O)(Cn1cncn1)c1ccc(F)cc1F | ATCC 16404 | broth dilution | 1 µg/mL